For the data set, the target named is GST::CrzA (UniProt Q4WJ81). Description: competition with a labelled probe. To be noted: recombinant protein, protein details: N-terminal GST (pDEST15).

Chains of the proteins cited; added tags and fusions are not shown. Lines headed by an entry give the natural chain unless they say otherwise; changes in a name come on top.
UniProt Q4WJ81: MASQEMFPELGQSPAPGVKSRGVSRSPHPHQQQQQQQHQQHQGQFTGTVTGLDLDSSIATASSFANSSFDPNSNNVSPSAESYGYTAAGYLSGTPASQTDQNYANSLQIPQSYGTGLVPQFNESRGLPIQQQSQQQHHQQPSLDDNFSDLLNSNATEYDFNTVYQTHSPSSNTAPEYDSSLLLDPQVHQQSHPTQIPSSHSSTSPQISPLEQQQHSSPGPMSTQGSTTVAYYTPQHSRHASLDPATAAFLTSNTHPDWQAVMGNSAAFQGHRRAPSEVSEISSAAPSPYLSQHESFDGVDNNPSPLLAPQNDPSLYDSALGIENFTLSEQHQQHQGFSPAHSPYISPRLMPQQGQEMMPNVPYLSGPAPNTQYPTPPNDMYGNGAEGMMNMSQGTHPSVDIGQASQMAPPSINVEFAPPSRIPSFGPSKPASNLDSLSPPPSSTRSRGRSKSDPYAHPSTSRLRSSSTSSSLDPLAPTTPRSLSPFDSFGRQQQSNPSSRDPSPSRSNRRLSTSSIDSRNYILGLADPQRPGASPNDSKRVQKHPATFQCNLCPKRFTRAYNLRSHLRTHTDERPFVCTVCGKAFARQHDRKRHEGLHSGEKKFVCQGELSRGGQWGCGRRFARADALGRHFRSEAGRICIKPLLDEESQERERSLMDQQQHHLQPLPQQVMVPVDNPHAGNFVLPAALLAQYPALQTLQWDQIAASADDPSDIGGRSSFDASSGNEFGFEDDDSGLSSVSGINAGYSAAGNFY

The exact form of at least one protein or probe is not confirmed.

In the case of “TCCGACACAGCCACGCTCT (double strand) [pmcC1/pmcC2 CDRE oligonucleotide]”, the binding result (pmcC probe, complete inhibition at about 15-fold excess) is “binds”.

For the sequence “TGTTGCCCTGCCCCTTGTC (double strand) [pmcA1/pmcA2 CDRE oligonucleotide]”, the binding result (pmcA probe, complex inhibited only at 30-fold excess) is given as “binds”.

Source of the values: PMC3359301.
